Assay results reported in article PMC8578908.
pKd: −log10 of the molar value.

Biological target: human angiotensin-converting enzyme 2 receptor (human) (UniProt Q9BYF1)
Assay: SPR; BIAcore assay; who was immobilised and the conditions are not given

SARS-CoV-2 RBD206 (I332-K537) (from UniProt P0DTC2 332-537) (domain or fragment; other documents disagree on this pair)
pKd: 8.94
